Compound potency records, mixed from different reports. Data source: NIAID ChemDB in PubChem.

Common to all: whole-cell or culture tests; agent: Respiratory syncytial virus; endpoint: EC50

Two numbers with a dash give a range or band.

compound,read by,cells,strain or isolate,value
Cc1cc(C)c2nc(NC3CCN(CCCC(N)=O)CC3)n(Cc3nc(C)ccc3O)c2c1,cytopathic effect,HeLa,,0.04 µM
CCOC(=O)Sc1nnc(-c2cn(-c3ccccc3)nc2-c2ccccc2)n1N,cytopathic effect,HeLa,,>80 µg/mL
N=C(N)c1ncn([C@@H]2O[C@H](CO)[C@@H](O)[C@H]2O)n1,,,,1–100 µM
CCOC(=O)c1cc(C#N)c2[nH]c3ccccc3n2c1=O,plaque count,HEP-2,LONG,10 µg/mL
Nc1ncnc2c1ccn2[C@@H]1C[C@H](O)[C@@H](O)[C@H]1O,,HeLa,LONG,>200 µg/mL
c1ccc(C2=Nn3c(nnc3-c3cn(-c4ccccc4)nc3-c3ccccc3)SC2)cc1,cytopathic effect,HeLa,,>3.2 µg/mL
Cc1cccc(CCNc2nc3ccccc3n2Cc2nc(C)ccc2O)c1,cytopathic effect,HeLa,,100 µM
CC(C)CS[C@@H]1C=C[C@H](n2cnc3c(N)ncnc32)C1,cytopathic effect,HeLa,,>3.2 µg/mL
CC1(C)[C@@H](CCO)C[C@H]1n1cnc2c(=O)[nH]c(N)nc21,cytopathic effect,HeLa,,>400 µg/mL
c1ccc2c(c1)CSSC2,cytopathic effect,HeLa,A2 (A),11.1 µM
CC1(CO)CCC(Cn2nnc3c(N)nc(N)nc32)C1(C)C,cytopathic effect,HeLa,,>400 µg/mL
O=C(/C=C/c1ccc(O)c(O)c1)O[C@@H]1CC(O)(C(=O)O)C[C@@H](OC(=O)/C=C/c2ccc(O)c(O)c2)C1O,cytopathic effect,HEP-2,,0.5 µg/mL
CC1(C)[C@@H](CCO)C[C@H]1n1cnc2c(=O)[nH]cnc21,cytopathic effect,HeLa,,>400 µg/mL
Cc1ccc(O)c(Cn2c(NC3CCN(CC(N)=O)CC3)nc3c(C)cccc32)n1,cytopathic effect,HeLa,,0.398 µM
COS(=O)(=O)O.N=C(N)c1ccc2cc(OC(=O)c3ccc(N=C(N)N)cc3)ccc2c1,cytopathic effect,HeLa,LONG,>36 µg/mL
OC[C@H]1O[C@@H](c2cc(Cl)c(F)cc2F)C[C@@H]1O,cytopathic effect,HeLa,,>400 µg/mL
Cc1cn([C@@H]2OC[C@H](CO)[C@H]2N=[N+]=[N-])c(=O)[nH]c1=O,cytopathic effect,HeLa,,>80 µg/mL
[N-]=[N+]=NC(CBr)c1cc([C@H]2C[C@H](O)[C@@H](CO)O2)c(F)cc1F,cytopathic effect,HeLa,,≥400 µg/mL
CCCN(CCC)S(=O)(=O)c1cccc(Nc2nc(Nc3cccc(S(=O)(=O)N(CCC)CCC)c3)nc(Nc3ccc(Nc4ccc(-c5ccc(Nc6ccc(Nc7nc(Nc8cccc(S(=O)(=O)N(CCC)CCC)c8)nc(Nc8cccc(S(=O)(=O)N(CCC)CCC)c8)n7)cc6S(=O)(=O)[O-])cc5S(=O)(=O)O)c(S(=O)(=O)O)c4)c(S(=O)(=O)[O-])c3)n2)c1,ELISA,HFF,A2,>25 µM
Cc1cc(C)c2nc(NCCc3ccc(S(N)(=O)=O)cc3)n(Cc3nc(C)ccc3O)c2c1,cytopathic effect,HeLa,,63.1 µM
C=C(N=CC)c1nc(-c2ccc(OC)cc2)n(C2O[C@H](CO)[C@@H](O)[C@H](O)[C@H]2O)n1,cytopathic effect,HeLa,LONG,100 µg/mL
Cc1ccc(NC(=S)Nc2ccc(NC(=O)c3ccco3)cc2)cc1Cl,,HFF,,>10 µg/mL
Cc1ccc(O)c(Cn2c(NCCCO)nc3ccccc32)n1,cytopathic effect,HeLa,,10 µM
N#CC1=CSc2nnc(-c3cn(-c4ccccc4)nc3-c3ccccc3)n2N=C1N,cytopathic effect,HeLa,,>16 µg/mL
COc1ncnc2c1ncn2[C@@H]1O[C@H](CO)[C@@H](O)[C@@H]1O,cytopathic effect,,,>100 µM
O=C(Nc1ccc(NC(=S)Nc2ccc(C(F)(F)F)c(Cl)c2)cc1)c1cocn1,,HFF,,>10 µg/mL
C=C(N=CC)c1nc(-c2cccc(C)c2)n(C2O[C@H](CO)[C@@H](O)[C@H](O)[C@H]2O)n1,cytopathic effect,HeLa,LONG,100 µg/mL
COc1cc(OC)c(NC(=S)Nc2ccc(NC(C)=O)cc2)cc1Cl,,HFF,A2,>20 µM
CC1(C)[C@@H](CCO)C[C@H]1n1cnc2c(N)ncnc21,cytopathic effect,HeLa,,>400 µg/mL
NC1=Nn2c(nnc2-c2cn(-c3ccccc3)nc2-c2ccccc2)SC1,cytopathic effect,HeLa,,>16 µg/mL
N#Cc1cc(C#N)c2[nH]c3ccccc3n2c1=O,plaque count,HEP-2,LONG,1 µg/mL
CC1(CO)CCC(Cn2nnc3c(N)ncnc32)C1(C)C,cytopathic effect,HeLa,,>40 µg/mL
O=C(Nc1ccc(NC(=S)Nc2ccc(Cl)c(C(F)(F)F)c2)cc1)c1ccco1,,HFF,,>10 µg/mL
N#Cc1cc(NC(=O)c2ccccc2)c(=O)n2c1[nH]c1ccccc12,plaque count,HEP-2,FM-58-8,0.1 µg/mL
CC(NC(=S)Nc1ccc(NC(=O)c2ccccc2F)cc1)c1ccc(F)cc1,ELISA,HFF,A2,>10 µg/mL
Nc1ncnc2c1ncn2[C@H]1C[C@@H](O)[C@H](CO)O1,cytopathic effect,VERO B,A2,>1000 µM
Cc1cc(C)c2nc(NCC3COC(C)(C)O3)n(Cc3nc(C)ccc3O)c2c1,cytopathic effect,HeLa,,100 µM
O=C(NC1CC1)c1cc2c(s1)-c1ccccc1N(C(=O)c1ccc(NC(=O)c3ccccc3-c3ccccc3)cc1)CC2,plaque count,HeLa,LONG (A),0.2 µM
CCOC(=O)/C=C/C=C/[C@H]1O[C@@H](n2ccc(=O)[nH]c2=O)[C@H](O)[C@@H]1O,,HeLa,,≥200 µM
CCOC(=O)c1ccc(OC(=O)CCCCCN=C(N)N)cc1.COS(=O)(=O)O,cytopathic effect,HeLa,LONG,>120 µg/mL
CC=NC(=N)c1nc(-c2cccc(OC)c2)n(C/C=C/c2ccccc2)n1,cytopathic effect,HeLa,LONG,20 µg/mL
Cc1ccc(O)c(Cn2c(NC3CCN(CCCCC(N)=O)CC3)nc3c(C)cccc32)n1,cytopathic effect,HeLa,,0.079 µM
COC(=O)[C@]1(C)CCC[C@]2(C)c3ccc4[nH]c(C(F)(F)F)nc4c3CCC12,plaque count,HeLa,,>4 µg/mL
CCOC(=O)CN1CCC(Nc2nc3c(C)cccc3n2Cc2nc(C)ccc2O)CC1,cytopathic effect,HeLa,,1.995 µM
Cc1ccc(O)c(Cn2c(NCC(O)CO)nc3ccccc32)n1,cytopathic effect,HeLa,,0.501 µM
Cc1ccc(O)c(Cn2c(NC3CCN(CC(=O)O)CC3)nc3c(C)cccc32)n1,cytopathic effect,HeLa,,6.31 µM
Nc1ccn([C@@H]2OC[C@H](CO)[C@H]2O)c(=O)n1,cytopathic effect,HeLa,,>80 µg/mL
CC=NC(=N)c1nc(-c2cccc(OC)c2)n(Cc2ccccc2)n1,cytopathic effect,HeLa,LONG,14 µg/mL
COC(=O)Nc1nc2c3c(ccc2[nH]1)[C@@]1(C)CCC[C@@](C)(C(=O)OC)C1CC3,plaque count,HeLa,,>4 µg/mL
Cc1ccc(O)c(Cn2c(NC3CCN(CC4(O)CCCCC4)CC3)nc3c(C)cccc32)n1,cytopathic effect,HeLa,,1.995 µM
CC1(CO)CCC(Cn2ccc(=O)[nH]c2=O)C1(C)C,cytopathic effect,HeLa,,>200 µg/mL
COc1cc(OC)c(NC(=S)Nc2ccc(NC(=O)c3ccco3)cc2C#N)cc1Cl,,HFF,,>10 µg/mL
Nc1ccn([C@@H]2C[C@H](CO)[C@@H](O)[C@H]2O)c(=O)n1,cytopathic effect,HeLa,LONG,>70 µg/mL
Cc1ccc(O)c(Cn2c(NC3CCN(CCN4CC=CCC4)CC3)nc3c(C)cccc32)n1,cytopathic effect,HeLa,,0.016 µM
NC(=O)CCN(CCC(N)=O)S(=O)(=O)c1cccc(Nc2nc(Nc3cccc(S(=O)(=O)N(CCC(N)=O)CCC(N)=O)c3)nc(Nc3ccc(-c4ccc(Nc5nc(Nc6cccc(S(=O)(=O)N(CCC(N)=O)CCC(N)=O)c6)nc(Nc6cccc(S(=O)(=O)N(CCC(N)=O)CCC(N)=O)c6)n5)cc4S(=O)(=O)O)c(S(=O)(=O)O)c3)n2)c1,cytopathic effect,HEP-2,37335/TYPE A,0.25 µg/mL
O=c1ccn([C@H]2C[C@@H](O)[C@H](CO)O2)c(=O)[nH]1,cytopathic effect,VERO B,A2,>100 µM
CC(=O)Nn1c(-c2cn(-c3ccccc3)nc2-c2ccccc2)n[nH]c1=S,cytopathic effect,HeLa,,>80 µg/mL
O=C(Nc1ccc(NC(=S)Nc2ccc(C(F)(F)F)c(Cl)c2)cc1)c1ccccn1,,HFF,,>10 µg/mL
CC1(CO)CCC(Cn2cnc3c(Cl)nc(N)nc32)C1(C)C,cytopathic effect,HeLa,,>200 µg/mL
CCOC(=O)c1ccc(OCCCN2CCC(Nc3nc4c(C)cccc4n3Cc3nc(C)ccc3O)CC2)cc1,cytopathic effect,HeLa,,0.501 µM
CC1=Nn2c(nnc2-c2cn(-c3ccccc3)nc2-c2ccccc2)SC1,cytopathic effect,HeLa,,>3.2 µg/mL
CC=NC(=N)c1nc(-c2ccccc2)n(Cc2ccccc2)n1,cytopathic effect,HeLa,LONG,>20 µg/mL
COC(=O)[C@]1(C)CCC[C@]2(C)c3ccc4[nH]c(C)nc4c3CCC12,plaque count,HeLa,,>4 µg/mL
Cc1cn([C@@H]2OC[C@H](CO)[C@H]2O)c(=O)[nH]c1=O,cytopathic effect,HeLa,,>80 µg/mL
CN(C)C(=O)COC(=O)Cc1ccc(OC(=O)c2ccc(N=C(N)N)cc2)cc1.COS(=O)(=O)O,cytopathic effect,HeLa,LONG,>500 µg/mL
Cc1ccc(O)c(Cn2c(NCCCN3CCCC3=O)nc3ccccc32)n1,cytopathic effect,HeLa,,12.6 µM
C[C@@]1(O)[C@H](O)[C@@H](COP(=O)(O)OP(=O)(O)OP(=O)(O)O)O[C@H]1n1ccc2c(N)ncnc21,neutral red,MA-104,,>320 µM
CCOC(=O)C1Sc2nnc(-c3cn(-c4ccccc4)nc3-c3ccccc3)n2NC1=O,cytopathic effect,HeLa,,>80 µg/mL
COc1cc(OC)c(NC(=S)Nc2ccc(NC(=O)c3ccco3)cc2C)cc1Cl,,HFF,,>10 µg/mL
CC=NC(=N)c1nc(-c2ccc(OC)cc2)n(Cc2ccccc2)n1,cytopathic effect,HeLa,LONG,>100 µg/mL
Cc1cc(C)c2nc(Nc3ccc(N)cc3)n(Cc3nc(C)ccc3O)c2c1,cytopathic effect,HeLa,,100 µM
N#Cc1cc(C(=O)O)c(=O)n2c1[nH]c1ccccc12,plaque count,HEP-2,LONG,>40 µg/mL
CC(C)(C)c1ccc2c(c1)CSSC2,cytopathic effect,HeLa,LONG,>125.2 µM
O=C(Nc1ccc(NC(=S)Nc2ccc(F)c(Cl)c2)cc1)c1ccco1,,HFF,,>10 µg/mL
Cc1cc(C)c2nc(NCc3ccccn3)n(Cc3nc(C)ccc3O)c2c1,cytopathic effect,HeLa,,1.585 µM
CC1(CO)CCC(Cn2cnc3c(N)nc(N)nc32)C1(C)C,cytopathic effect,HeLa,,40 µg/mL
CC1(CO)CCC(Cn2nnc3c(Cl)ncnc32)C1(C)C,cytopathic effect,HeLa,,>40 µg/mL

Repeating the final 5 entries:

compound,read by,cells,strain or isolate,value
CC(C)(C)c1ccc2c(c1)CSSC2,cytopathic effect,HeLa,LONG,>125.2 µM
O=C(Nc1ccc(NC(=S)Nc2ccc(F)c(Cl)c2)cc1)c1ccco1,,HFF,,>10 µg/mL
Cc1cc(C)c2nc(NCc3ccccn3)n(Cc3nc(C)ccc3O)c2c1,cytopathic effect,HeLa,,1.585 µM
CC1(CO)CCC(Cn2cnc3c(N)nc(N)nc32)C1(C)C,cytopathic effect,HeLa,,40 µg/mL
CC1(CO)CCC(Cn2nnc3c(Cl)ncnc32)C1(C)C,cytopathic effect,HeLa,,>40 µg/mL

An empty or dashed field is not shown. Lines come from different laboratories, so protocols vary. ECn: concentration that inhibits the pathogen or its effect by n%.